Experimental findings from patent US10010619B2, “Bipartite inhibitors of bacterial RNA polymerase” (priority 2011, dated 2018) are described below.

Protein sequences, listed by entry. Tags and fused reporters are not part of them. Lines headed by an entry give the natural chain unless they say otherwise; changes in a name come on top.
UniProt P0A8V2: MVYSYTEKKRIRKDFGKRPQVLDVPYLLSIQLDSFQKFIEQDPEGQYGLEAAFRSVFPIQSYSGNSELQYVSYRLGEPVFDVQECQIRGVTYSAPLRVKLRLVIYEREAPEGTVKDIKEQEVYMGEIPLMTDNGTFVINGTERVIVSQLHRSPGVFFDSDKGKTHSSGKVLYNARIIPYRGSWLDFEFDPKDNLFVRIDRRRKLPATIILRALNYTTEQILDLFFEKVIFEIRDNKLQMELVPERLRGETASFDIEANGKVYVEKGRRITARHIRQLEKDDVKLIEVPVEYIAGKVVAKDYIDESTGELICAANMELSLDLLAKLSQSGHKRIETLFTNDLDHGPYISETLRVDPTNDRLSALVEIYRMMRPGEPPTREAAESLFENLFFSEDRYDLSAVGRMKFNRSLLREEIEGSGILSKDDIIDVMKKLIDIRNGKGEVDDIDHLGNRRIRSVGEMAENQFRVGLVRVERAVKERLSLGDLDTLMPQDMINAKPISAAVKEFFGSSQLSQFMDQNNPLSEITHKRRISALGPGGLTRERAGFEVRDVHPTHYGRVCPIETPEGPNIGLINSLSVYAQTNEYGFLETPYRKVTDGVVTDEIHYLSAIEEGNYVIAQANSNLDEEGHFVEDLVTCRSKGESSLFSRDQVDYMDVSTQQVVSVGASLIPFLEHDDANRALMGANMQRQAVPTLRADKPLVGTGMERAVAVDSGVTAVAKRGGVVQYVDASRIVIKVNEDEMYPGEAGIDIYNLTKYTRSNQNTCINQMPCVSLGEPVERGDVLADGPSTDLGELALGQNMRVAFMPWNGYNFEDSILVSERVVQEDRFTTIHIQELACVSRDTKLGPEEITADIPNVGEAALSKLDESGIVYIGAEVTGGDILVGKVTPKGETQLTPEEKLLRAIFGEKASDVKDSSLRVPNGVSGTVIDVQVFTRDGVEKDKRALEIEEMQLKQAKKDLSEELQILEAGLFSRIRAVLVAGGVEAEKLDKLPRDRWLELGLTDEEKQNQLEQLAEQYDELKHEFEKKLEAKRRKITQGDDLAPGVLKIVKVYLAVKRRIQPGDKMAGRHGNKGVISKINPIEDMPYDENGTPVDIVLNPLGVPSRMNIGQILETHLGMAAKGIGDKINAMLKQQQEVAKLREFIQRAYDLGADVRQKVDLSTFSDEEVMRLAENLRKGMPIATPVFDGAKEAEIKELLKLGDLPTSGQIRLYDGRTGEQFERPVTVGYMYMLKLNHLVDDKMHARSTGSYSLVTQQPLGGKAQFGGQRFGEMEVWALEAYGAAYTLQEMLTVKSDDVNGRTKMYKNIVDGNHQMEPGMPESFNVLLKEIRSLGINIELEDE

Broadly, the IC50 is the concentration that gives 50% inhibition.

The assay addresses T1, GE23077-resistant Escherichia coli RNAP derivative ([Asp565]β-RNAP) (Escherichia coli, UniProt P0A8V2, E565D).
T1 construct: made in house
Type of assay: biochemical. As for the experimental part:
Fluorescence-detected RNA polymerase assays with E. coli RNA polymerase were performed by a modification of the procedure of Kuhlman et al., 2004 [Kuhlman, P., Duff, H. and Galant, A. (2004) A fluorescence-based assay for multisubunit DNA-dependent RNA polymerases. Anal. Biochem. 324, 183-190]. Reaction mixtures contained (20 μl): 0-100 nM test compound, 75 nM Escherichia coli RNA polymerase σ^70 holoenzyme or Escherichia coli RNA polymerase σ^70 holoenzyme derivative (prepared as in Feklistov, A., Mekler, V., Jiang, Q., Westblade, L., Irschik, H., Jansen, R., Mustaev, A., Darst, S., and Ebright, R. (2008) Proc. Natl. Acad. Sci. USA 105, 14820-14825), 20 nM 384 bp DNA fragment containing the bacteriophage […] N25 promoter, 100 μM ATP, 100 μM GTP, 100 μM UTP, 100 μM CTP, 50 mM Tris-HCl, pH 8.0, 100 mM KCl, 10 mM MgCl2, 1 mM DTT, 10 μg/ml bovine serum albumin, and 5.5% glycerol. Reaction components other than DNA and NTPs were pre-incubated for 10 min at 37° C. […] RNA was quantified by addition of 100 μl RiboGreen RNA Quantitation Reagent (Invitrogen, Inc.; 1:500 dilution in Tris-HCl, pH 8.0, 1 mM EDTA), followed by incubation for 10 min at 25° C., followed by measurement of fluorescence intensity [excitation wavelength=485 nm and emission wavelength=535 nm; QuantaMaster QM1 spectrofluorimeter (PTI, Inc.)]. […]

In the case of GE23077 [reference compound], the IC50 was over 100 µM.
